The term IC50 denotes the concentration needed to halve the response being measured.

Sequences of proteins named here, by UniProt entry; tags and fusion partners are left off. Residues count along the entry.
UniProt P62593, 24-286 limits assumed: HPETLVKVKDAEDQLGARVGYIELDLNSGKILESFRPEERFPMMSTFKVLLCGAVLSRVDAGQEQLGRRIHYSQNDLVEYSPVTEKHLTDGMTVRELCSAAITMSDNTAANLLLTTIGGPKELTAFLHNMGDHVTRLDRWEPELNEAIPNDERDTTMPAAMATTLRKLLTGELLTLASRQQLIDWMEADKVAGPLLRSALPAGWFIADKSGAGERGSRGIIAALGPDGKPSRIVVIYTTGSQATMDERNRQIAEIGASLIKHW
UniProt Q9F663, 25-293 limits assumed: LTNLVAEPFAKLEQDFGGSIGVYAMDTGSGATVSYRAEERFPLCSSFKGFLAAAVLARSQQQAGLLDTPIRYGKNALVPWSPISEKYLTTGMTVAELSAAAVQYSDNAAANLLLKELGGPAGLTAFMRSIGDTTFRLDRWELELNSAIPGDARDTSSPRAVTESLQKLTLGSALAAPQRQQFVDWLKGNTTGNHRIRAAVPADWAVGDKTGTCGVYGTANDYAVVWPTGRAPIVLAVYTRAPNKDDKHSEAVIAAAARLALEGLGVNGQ
UniProt Q9L4P2, 18-273 limits assumed: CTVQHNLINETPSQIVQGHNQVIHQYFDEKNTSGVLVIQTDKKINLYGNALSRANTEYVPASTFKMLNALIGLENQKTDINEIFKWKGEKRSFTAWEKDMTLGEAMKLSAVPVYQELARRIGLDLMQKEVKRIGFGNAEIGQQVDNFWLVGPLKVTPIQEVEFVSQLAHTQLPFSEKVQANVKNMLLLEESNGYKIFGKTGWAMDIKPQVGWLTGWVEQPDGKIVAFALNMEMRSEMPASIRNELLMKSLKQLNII
UniProt P05364, 21-381 limits assumed: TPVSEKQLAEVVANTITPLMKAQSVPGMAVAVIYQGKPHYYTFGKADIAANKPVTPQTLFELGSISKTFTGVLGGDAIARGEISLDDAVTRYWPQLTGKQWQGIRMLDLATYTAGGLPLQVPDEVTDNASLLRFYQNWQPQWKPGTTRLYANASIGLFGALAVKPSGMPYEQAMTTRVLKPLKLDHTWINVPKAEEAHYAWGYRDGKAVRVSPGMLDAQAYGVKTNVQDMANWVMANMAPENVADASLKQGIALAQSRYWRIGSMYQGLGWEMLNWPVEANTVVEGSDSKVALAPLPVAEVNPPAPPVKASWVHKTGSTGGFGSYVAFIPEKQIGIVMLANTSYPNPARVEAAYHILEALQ

Drawing on EP4759816A1, “UREA-CONTAINING TRICYCLIC ß-LACTAMASE INHIBITOR, PREPARATION METHOD THEREFOR AND USE THEREOF” (priority 2023, dated 2025), this text covers IC50 for one compound.

Holding throughout (assay): β-Lactamase inhibitory activity test, nitrocefin substrate
One assay has as its target TEM-1 (Escherichia coli, UniProt P62593). As to conditions: read-out: Inhibitory activity (IC50); TEM-1, enzyme family A; 100 µM nitrocefin, 37°C, 10 minutes preincubation; tested form: Na salt. As for the experimental part:
(§1) The IC50 of β-lactamase inhibitors against β-lactamases was tested using nitrocefin as the substrate. The enzyme and serially diluted β-lactamase inhibitor were incubated in 50 mM phosphate buffer (containing 0.1 mg/mL bovine serum albumin) at 37°C for 10 minutes. The reaction was initiated by adding 100 µM nitrocefin, and the reaction temperature was set to 37°C. The absorbance at 490 nm was recorded every minute for a total of 1 hour. The initial reaction rate was calculated, and the IC50 was calculated using GraphPad Prism software. Table 4. Inhibitory activity (IC50, mg/L) of compounds against β-lactamases

The target of the next assay is KPC-2 (Klebsiella pneumoniae, UniProt Q9F663). It is filed as biochemical. As to conditions: read-out: Inhibitory activity (IC50); KPC-2, enzyme family A; 100 µM nitrocefin, 37°C, 10 minutes preincubation; tested form: Na salt. On the procedure:
as §1

The next assay has as its target OXA-23 (Acinetobacter baumannii, UniProt Q9L4P2). Format: biochemical. As to conditions: read-out: Inhibitory activity (IC50); OXA-23, enzyme family D; 100 µM nitrocefin, 37°C, 10 minutes preincubation; tested form: Na salt. On the procedure:
as §1

The next assay has as its target AmpC (Enterobacter cloacae, UniProt P05364). As to conditions: read-out: Inhibitory activity (IC50), enzyme family C, 100 µM nitrocefin, 37°C, 10 minutes preincubation, tested form: Na salt.

For the compound `NC(=O)C1c2c(ccn2S(=O)(=O)c2cccnc2)C2CN1C(=O)N2OS(=O)(=O)O` (stereo not shown), the IC50 is less than 1 µM at TEM-1, less than 1 µM on KPC-2, 10 to 100 µM on OXA-23 and less than 1 µM on AmpC.
